Reference: ChEMBL document CHEMBL1795211, “Evaluation of NTF1836 as an inhibitor of the mycothiol biosynthetic enzyme MshC in growing and non-replicating Mycobacterium tuberculosis” (Bioorg Med Chem, 2011)
Values after ≈ are worked out from the molar mass of the structure shown.

Legend:
[1] = system: Mycobacterium tuberculosis; assay: Antimycobacterial activity against mid-log phase of Mycobacterium tuberculosis VA1215 isolated from patient after two passages after 7 days by 96 well plate assay
[2] = system: Mycobacterium tuberculosis; assay: Antimycobacterial activity against mid-log phase of Mycobacterium tuberculosis UCSD14768J isolated from patient after two passages after 7 days by 96 well plate assay
[3] = system: Mycobacterium tuberculosis; assay: Antimycobacterial activity against mid-log phase of Mycobacterium tuberculosis CDC1551 isolated from patient after 7 days by 96 well plate assay
[4] = system: Mycobacterium tuberculosis; assay: Antimycobacterial activity against mid-log phase of Mycobacterium tuberculosis VA1345 isolated from patient after two passages after 7 days by 96 well plate assay

O=C(NCCN1CCCCCC1)c1ccc2c(c1)N(Cc1cccc(Cl)c1)C(=O)c1ccccc1[S+]2[O-] (racemic)
MIC95 [1]: 110 µM (≈ 59 µg/mL) | MIC95 [2]: 110 µM (≈ 59 µg/mL) | MIC95 [3]: 110 µM (≈ 59 µg/mL) | MIC95 [4]: 110 µM (≈ 59 µg/mL)

CN(CCCNC(=O)c1ccc2c(c1)N(Cc1cccc(Cl)c1)C(=O)c1ccccc1[S+]2[O-])C1CCCCC1 (configuration not stated)
MIC95 [1]: 110 µM (≈ 62.1 µg/mL) | MIC95 [2]: 110 µM (≈ 62.1 µg/mL) | MIC95 [3]: 110 µM (≈ 62.1 µg/mL) | MIC95 [4]: 110 µM (≈ 62.1 µg/mL)

O=C(NCCCN1CCCC1)c1ccc2c(c1)N(Cc1cccc(Cl)c1)C(=O)c1ccccc1[S+]2[O-] (racemic)
MIC95 [1]: 220 µM (≈ 115 µg/mL) | MIC95 [2]: 220 µM (≈ 115 µg/mL) | MIC95 [3]: 220 µM (≈ 115 µg/mL) | MIC95 [4]: 220 µM (≈ 115 µg/mL)

CCC1CCCCN1CCCNC(=O)c1ccc2c(c1)N(Cc1cccc(Cl)c1)C(=O)c1ccccc1[S+]2[O-] (racemic)
MIC95 [1]: 110 µM (≈ 62.1 µg/mL)

O=C(NCCCN1CCCC1)c1ccc2c(c1)N(Cc1cccc(Cl)c1)C(=O)c1ccccc1S2
MIC95 [1]: 110 µM (≈ 55.7 µg/mL) | MIC95 [2]: 110 µM (≈ 55.7 µg/mL) | MIC95 [3]: 110 µM (≈ 55.7 µg/mL) | MIC95 [4]: 110 µM (≈ 55.7 µg/mL)
